Experimental findings from patent US20230221313A1 are described below.

The assay has as its target SARS CoV-2 reporter virus particle with spike protein D614G mutation (SARS-CoV-2) (UniProt P0DTC2). As to the kind of experiment: cell-based or functional assay.

anti-SARS-CoV antibody, CR3022: the Fold change GFP-/GFP+ (droplet neutralization, NGS reads), Round 2 was found to be 797.
